Data as given in PubChem BioAssay AID624099 (ICCB-Longwood, 2012)

Screen: 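Host factors E2 relies on to silence an HPV18 LCR reporter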 (primary screen)
Cell system: human C33A cervical carcinoma cells (HPV-negative) stably expressing BPV1 E2 and an HPV18 LCR luciferase reporter
Reagents: siRNA pool against human genes, 40 nM
Duration: 72 h
Measurement: 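HPV18 LCR reporter light per well, converted to plate-wise z-scores that exclude control wells, and averaged over triplicate plates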
Reading the numbers: mean z-score and z-score: higher = stronger reporter signal, weaker E2 silencing
Active means: 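Hit if mean z-score reaches 2 and two or more of three replicate z-scores also reach 2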
This is a random part of about 21,000 deposited reagents. Of all reagents, 497 (2.4%) got an active call. 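Higher z means weaker E2 silencing; only reporter increases were scored, and knock-downs that hurt cell survival may mask genuine repressor factors.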 Entries without a mark were called inactive.

L1CAM — mean z-score = -0.63; z-score, replicate A = -0.26; z-score, replicate B = -0.82; z-score, replicate C = -0.81
NOMO1 — mean z-score = -0.78; z-score, replicate A = -0.65; z-score, replicate B = -0.69; z-score, replicate C = -1
PSTPIP1 — mean z-score = 0.18; z-score, replicate A = 0.06; z-score, replicate B = 0.12; z-score, replicate C = 0.36
HLA-B — mean z-score = 0.48; z-score, replicate A = 0.41; z-score, replicate B = 0.49; z-score, replicate C = 0.55
LOC388791 (retired record) — mean z-score = -0.67; z-score, replicate A = -0.34; z-score, replicate B = -0.86; z-score, replicate C = -0.81
KLHL6 — mean z-score = -0.77; z-score, replicate A = -0.88; z-score, replicate B = -1.08; z-score, replicate C = -0.35
GDI2 — mean z-score = 2.05 (active); z-score, replicate A = 2.01; z-score, replicate B = 2.06; z-score, replicate C = 2.07
AIDA — mean z-score = 0.28; z-score, replicate A = 0.11; z-score, replicate B = 0.49; z-score, replicate C = 0.24
HELLS — mean z-score = -1.28; z-score, replicate A = -1.29; z-score, replicate B = -1.5; z-score, replicate C = -1.06
ABCG5 — mean z-score = 2.05; z-score, replicate A = 1.91; z-score, replicate B = 1.98; z-score, replicate C = 2.26
EML4 — mean z-score = 0.48; z-score, replicate A = 0.47; z-score, replicate B = 0.29; z-score, replicate C = 0.68
ST13P3 — mean z-score = 1.28; z-score, replicate A = 1.29; z-score, replicate B = 1.3; z-score, replicate C = 1.25
MOGAT3 — mean z-score = 0.81; z-score, replicate A = 0.9; z-score, replicate B = 0.78; z-score, replicate C = 0.74
GCFC2 — mean z-score = -0.44; z-score, replicate A = -0.07; z-score, replicate B = -0.72; z-score, replicate C = -0.52
LOC284409 (retired record) — mean z-score = -0.94; z-score, replicate A = -1.24; z-score, replicate B = -0.86; z-score, replicate C = -0.72
XRN2 — mean z-score = -0.06; z-score, replicate A = -0.21; z-score, replicate B = -0.09; z-score, replicate C = 0.13
FRA10AC1 — mean z-score = 0.29; z-score, replicate A = 0.37; z-score, replicate B = 0.25; z-score, replicate C = 0.25
ZFYVE21 — mean z-score = 0.95; z-score, replicate A = 1.03; z-score, replicate B = 1.27; z-score, replicate C = 0.55
PTPRT — mean z-score = -0.22; z-score, replicate A = -0.39; z-score, replicate B = -0.09; z-score, replicate C = -0.18
LOC390566 (retired record) — mean z-score = 3.25 (active); z-score, replicate A = 4.4; z-score, replicate B = 2.91; z-score, replicate C = 2.45
RBM24 — mean z-score = -0.86; z-score, replicate A = -0.8; z-score, replicate B = -0.73; z-score, replicate C = -1.06
